Measured values from several laboratories, pooled; numbers as filed in NIAID ChemDB.

Common to all: toxicity to cultured cells; cells: HepG2; measure: CC50

a–b is a range or a potency band. CCn: concentration that lowers growth or viability of the cells by n%. Blank or dashed fields: not listed here. Neighbouring rows are from separate reports.

structure | read by | result
Cc1cc(C=O)cc(C)c1Oc1cc(Nc2ccc(C#N)cc2)nc2ccccc12 | MTT | 65.9 µM
Nc1ncnc2c1c(-c1ccccc1)cn2[C@@H]1O[C@H](CO)[C@@H](O)C1(F)F | XTT | >10 µM
Cc1c(C(=O)Nc2cc(Cl)cc(Cl)c2)c(C)n(C)c1C(=O)C(=O)NC1CCC(O)CC1 | MTT | 5–30 µM
Nc1ncnc2c1c(I)cn2[C@@H]1O[C@H](CO)[C@@H](O)[C@H]1F | XTT | 0.15 µM
CCOC(=O)[C@H](C)NP(=O)(OC[C@@H]1OC[C@H](n2cnc3c(N)nc(N)nc32)O1)Oc1ccccc1 | MTS | >100 µM
O=C(Nc1ccc(Cl)cc1)Nc1ccc(Nc2ccccc2)cc1 | luminescence | >100 µM
COc1ccc2nc3cc(Cl)ccc3c(NCCCCNC(=O)/C=C/c3ccc(F)cc3)c2c1 | MTT | 164.7 µM
C/C=C(/C)C(=O)O[C@H]1c2c(ccc3c(C)cc(=O)oc23)OC(C)(C)[C@H]1OC(=O)/C(C)=C\C | MTT | 23.64 µM
CCCCCCCC(=O)Nc1nc(N)nc2c1ncn2[C@H]1CO[C@@H](COP(=O)(N[C@@H](C)C(=O)OCC)Oc2ccccc2)O1 | MTS | 9.5 µM
CCCCCc1ccc(-c2cn(C/C(C)=C/CP(=O)(OCOC(=O)OC(C)C)OCOC(=O)OC(C)C)nn2)cc1 | absorbance | 51.8 µM
O=[N+]([O-])c1ccc(OCc2nn3c(-c4ccc(Br)cc4)nnc3s2)cc1 | resazurin | 38.39 µM
CCCCc1ccc(-c2cn(C/C(C)=C/CP(=O)(OCOC(=O)OC(C)C)OCOC(=O)OC(C)C)nn2)cc1 | absorbance | 16.2 µM
Nc1nc(N)nc(-c2ccc(Sc3ccccc3)cc2)n1 | sulforhodamine / absorbance | >271 µM
CC(C)OC(=O)[C@H](C)NP(=O)(OC[C@H]1O[C@@H](n2cnc3c(N)ncnc32)C(F)(F)C1(F)F)Oc1ccccc1 |  | >100 µM
CC[C@H]1OC(=O)[C@H](C)[C@@H](O[C@H]2C[C@@](C)(OC)[C@@H](O)[C@H](C)O2)[C@H](C)[C@@H](O[C@@H]2O[C@H](C)C[C@H](N(C)C(=O)CCCNc3ccnc4cc(Cl)ccc34)[C@H]2O)[C@](C)(O)C[C@@H](C)CN(C)[C@H](C)[C@@H](O)[C@]1(C)O | MTS | >50 µM
CCCCCCCCCCCCCCCCOCCCOP(=O)(C/C=C(\C)Cn1cc(-c2ccc(CCCCC)cc2)nn1)OCOC(=O)OC(C)C | absorbance | >100 µM
COc1ccc(/C=C/C(=O)O[C@H]2c3c(ccc4c(C)cc(=O)oc34)OC(C)(C)[C@H]2OC(=O)/C=C/c2ccc(OC)cc2)cc1 | MTT | 89.29 µM
Nc1nc(N)nc(-c2ccc(Oc3ccc(F)cc3)cc2)n1 | sulforhodamine / absorbance | >269 µM
COc1ccc2c(c1)C=C1Cn3c-2c(C2CCCCC2)c2ccc(cc23)C(=O)NS(=O)(=O)N(C)CCOCCN(C)C1=O | resazurin | >50 µM
COc1ccc(C(=O)O[C@H]2c3c(ccc4c(C)cc(=O)oc34)OC(C)(C)[C@H]2OC(=O)c2ccc(OC)cc2)cc1 | MTT | 50.92 µM
OCCCNc1nc(NCCCCNc2ccnc3cc(Cl)ccc23)nc(N2CCCCC2)n1 |  | 28.4 µM
CC(C)OC(=O)[C@H](C)NP(=O)(OC[C@H]1O[C@@H](n2ccc(=O)[nH]c2=O)C(F)(F)C1(F)F)Oc1ccccc1 |  | >100 µM
Nc1nc(N)nc(-c2ccc(Oc3ccccc3Cl)cc2)n1 | sulforhodamine / absorbance | >255 µM
COc1ccc2nc3cc(Cl)ccc3c(NCCCCNC(=O)/C=C/c3ccc(Br)cc3)c2c1 | MTT | 3.4 µM
CC[C@H]1OC(=O)[C@H](C)[C@@H](O[C@H]2C[C@@](C)(OC)[C@@H](O)[C@H](C)O2)[C@H](C)[C@@H](O[C@@H]2O[C@H](C)C[C@H](N(C)CCCNc3ccnc4cc(Cl)ccc34)[C@H]2O)[C@](C)(O)C[C@@H](C)CN(C)[C@H](C)[C@@H](O)[C@]1(C)O | MTS | 3 µM
Cc1cccc(Oc2ccc(-c3nc(N)nc(N)n3)cc2)c1 | sulforhodamine / absorbance | >273 µM
C[C@@H]1[C@H](n2ccc(N)nc2=O)O[C@@](CO)(N=[N+]=[N-])[C@H]1O | MTS | 300 µM
Cc1cc(NC(=O)c2c(C)c(C(=O)C(=O)NC3CCC(O)CC3)n(C)c2C2CC2)ccc1F | MTT | >30 µM
CNC(=O)c1cn(C/C(C)=C/CP(=O)(OCOC(=O)OC(C)C)OCOC(=O)OC(C)C)nn1 | absorbance | >100 µM
COc1ccc2c3c(ccc(OC)c13)C1C3=C(Nc4ncnn41)c1cc(Cl)ccc1OC32 | luminescence | >50 µM
CC1(C)C(=O)CC[C@]2(C)[C@@H]1CC[C@@]13CC[C@@H](C[C@H]12)C([C@@H](O)CO)C3 | MTT | >100 µM
Oc1ccc([C@H]2Oc3cccc(O)c3C(c3c(O)cc(O)c4c3O[C@H](c3ccc(O)c(O)c3)[C@@H](O)C4)[C@H]2O)cc1O | MTT | >120 µM
CC1(C)[C@H]2CC[C@@]34CC[C@@H](C[C@H]3[C@]2(C)CC[C@@H]1O)C([C@@H](O)CO)C4 | MTT | 13.7 µM
Cc1cc(NC(=O)c2c(C)c(C(=O)C(=O)NC3CCC(S(C)(=O)=O)CC3)n(C)c2C2CCCC2)ccc1F | MTT | 5–30 µM
Nc1ncnc2c1c(-c1ccco1)cn2[C@@H]1O[C@H](CO)[C@@H](O)[C@H]1F | XTT | >10 µM
CCOC(=O)[C@H](C)NP(=O)(OC[C@@H]1OC[C@H](n2cnc3c(NC(C)=O)nc(N)nc32)O1)Oc1ccccc1 | MTS | >100 µM
Cc1cc(NC(=O)c2c(C)c(C(=O)C(=O)N[C@H]3[C@H]4CC[C@H](C4)[C@H]3CO)n(C)c2C)ccc1F | MTT | >30 µM
CCOC(=O)c1sc(NC(=O)Cc2c(F)cccc2Cl)nc1C | luminescence | >100 µM
CCCCCCc1ccc(-c2cn(C/C(C)=C/CP(=O)(OCOC(=O)OC(C)C)OCOC(=O)OC(C)C)nn2)cc1 | absorbance | 59.6 µM
CC(C)OC(=O)[C@H](C)NP(=O)(OC[C@H]1O[C@@H](n2cnc3c(=O)[nH]c(N)nc32)C(F)(F)C1(F)F)Oc1ccccc1 |  | >100 µM
Nc1ccn([C@H]2CC[C@@H](CO)O2)c(=O)n1 |  | >25 µM
Nc1nc(N)nc(-c2ccc(Oc3ccc(Cl)cc3)cc2)n1 | sulforhodamine / absorbance | >255 µM
CCc1ccccc1NC(=O)c1c(NC(=O)c2cccc(Cl)c2)sc2c1CCC2 | luminescence | >25 µM
O=C(NCc1cccs1)c1nn2c(c1Cl)N[C@H](c1ccco1)C[C@@H]2C(F)(F)F | ATP | >100 µM
Cc1cn([C@@H]2O[C@H](CO)C(F)(F)C2(F)F)c(=O)[nH]c1=O |  | >100 µM
Cc1cc(OCC(=O)N2CCC(C)CC2)ccc1Br | luminescence | 55 µM
CCCc1cc(=O)oc2cc(N3CCN(C(=O)C(C)CC)CC3)c3c(c12)OC(C)(C)C=C3 | ATP / luminescence | >22 µg/mL
CC(C)OC(=O)[C@H](C)NP(=O)(OC[C@H]1O[C@@H](n2ccc(N)nc2=O)C(F)(F)C1(F)F)Oc1ccccc1 |  | >100 µM
Cc1ccc(SCC(=O)Nc2ccc(Br)c(C)c2)cc1 | luminescence | >100 µM
Clc1ccc(-c2nnc3sc(COc4ccc(Br)cc4)nn23)cc1 | resazurin | 29.08 µM
CCCCCCCCCCCC(=O)Nc1nc(N)nc2c1ncn2[C@H]1CO[C@@H](COP(=O)(N[C@@H](C)C(=O)OCC)Oc2ccccc2)O1 | MTS | 71 µM
COc1ccc(OCc2nn3c(-c4ccc(Br)cc4)nnc3s2)cc1 | resazurin | 50.17 µM
Cc1c(C(=O)Nc2ccc(F)c(Br)c2)c(C)n(C)c1C(=O)C(=O)NC1CCC(O)CC1 | MTT | >30 µM
Cc1cc(=O)oc2c3c(ccc12)OC(C)(C)[C@@H](OC(=O)c1ccccc1Br)[C@H]3OC(=O)c1ccccc1Br | MTT | >100 µM

3 of the rows above, restated:

structure | read by | result
O=C(NCc1cccs1)c1nn2c(c1Cl)N[C@H](c1ccco1)C[C@@H]2C(F)(F)F | ATP | >100 µM
Cc1cc(NC(=O)c2c(C)c(C(=O)C(=O)N[C@H]3[C@H]4CC[C@H](C4)[C@H]3CO)n(C)c2C)ccc1F | MTT | >30 µM
CCCCCCCC(=O)Nc1nc(N)nc2c1ncn2[C@H]1CO[C@@H](COP(=O)(N[C@@H](C)C(=O)OCC)Oc2ccccc2)O1 | MTS | 9.5 µM